The source of these data is PubChem BioAssay AID504406 (Broad Institute, 2011).

Protein sequences, listed by entry. Tags and fused reporters are not part of them.
UniProt P9WIQ1, whole entry: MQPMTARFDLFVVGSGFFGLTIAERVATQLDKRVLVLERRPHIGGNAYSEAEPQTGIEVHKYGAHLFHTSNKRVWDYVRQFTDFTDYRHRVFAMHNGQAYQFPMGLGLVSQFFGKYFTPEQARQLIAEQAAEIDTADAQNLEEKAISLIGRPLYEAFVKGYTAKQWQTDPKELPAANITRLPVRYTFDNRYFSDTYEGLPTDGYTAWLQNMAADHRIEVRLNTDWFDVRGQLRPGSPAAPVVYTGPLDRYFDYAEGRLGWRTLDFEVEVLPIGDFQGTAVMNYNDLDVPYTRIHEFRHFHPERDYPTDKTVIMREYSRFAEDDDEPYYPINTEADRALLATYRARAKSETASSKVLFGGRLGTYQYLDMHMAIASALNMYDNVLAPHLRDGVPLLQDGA

Only a part is listed here, and it is no random draw. Calls of active or inactive are those of the source. Cut-off read from the data, not from the text of the source: active = inhibition above about 10% (passing the limit was not always enough); inconclusive = no clear call, values can overlap the other calls.

The target in the assay is UDP-galactopyranose mutase (Mycobacterium tuberculosis (strain ATCC 25618 / H37Rv)) (UniProt P9WIQ1). The assay is described as follows: blockers of Mtb UDP-galactopyranose mutase – biochemical, fluorescence polarization, single point, primary screen (AID 504406). The following applies: purified UGM, fluorescence polarization probe displacement; at 10 µM; stronger effect = higher value.
What is called inhibition is the drop in the measured response relative to a control, in per cent. `O=C(NCC1(N2CCCCC2)CCCCC1)c1cccc(C(F)(F)F)c1`: the inhibition is inactive: 1.19%.

For the molecule `COc1cc(C(=O)NCC2(N3CCCCC3)CCCCC2)ccc1OC(F)F`, the inhibition is inactive: -0.272%.

In the case of `O=C(NCC1(N2CCOCC2)CCCCC1)c1cc(=O)[nH]c2ccccc12`, the inhibition was inactive: 1.45%.

Regarding `CN1CCN(CCOC(=O)C(O)(c2ccccc2)c2ccccc2)CC1`, the inhibition was inactive: -1.88%.

With `COc1ccc(NC2CCN(C(=O)OC(C)(C)C)CC2)cc1`, the inhibition was inactive: 2.36%.

Regarding `O=C(NCC1(N2CCCCC2)CCCCC1)c1ccc(OC(F)F)cc1`, the inhibition is inactive: -1.53%.

Consider `CCN1CCC(Nc2ccc(Cl)cc2)CC1`, for which the inhibition was inactive: -1.32%.

In the case of `N#CC1(Nc2ccccc2)CCN(CCc2ccccc2)CC1`, the inhibition is inactive: 1.3%.

For the molecule `O=C(NCC1(N2CCCCC2)CCCCC1)c1cccc([N+](=O)[O-])c1`, the inhibition is inactive: 3.47%.

Regarding `O=C(NCC1(N2CCCCC2)CCCCC1)c1cncc(Br)c1`, the inhibition is inactive: 1%.

In the case of `CN1CCC(Nc2cccc(F)c2)CC1`, the inhibition was inactive: -3.45%.

Regarding `CCCOc1ccc(C(=O)NCC2(N(C)C)CCCCC2)cc1OC`, the inhibition is inactive: -1.4%.

For `CC(C)c1ccc(NC2CCN(C(=O)OC(C)(C)C)CC2)cc1`, the inhibition is inactive: 1.41%.

For `COc1ccc(CN(CCCl)CCCl)cc1Cl`, the inhibition is inactive: 0.437%.

For the molecule `CN(C)c1cccc(C(=O)NCC2(N3CCCCC3)CCCCC2)c1`, the inhibition is inactive: -1.07%.

On to `COc1cc(OC)c(C(=O)NCC2(N(C)C)CCCCC2)cc1OC`, for which the inhibition was inactive: -1.86%.

Consider `O=C(NCC1(N2CCOCC2)CCCCC1)c1cc(F)c(F)cc1Cl`, for which the inhibition is inactive: 1.7%.

`O=C(NCC1(N2CCCCC2)CCCCC1)c1ccc(Cl)nc1`: the inhibition is inactive: -0.212%.

As for `Cc1cc(C)cc(N(C(=O)c2ccccc2)C2CCN(C(=O)OC(C)(C)C)CC2)c1`, the inhibition is inactive: 0.2%.

As to `O=C(NCC1(N2CCOCC2)CCCCC1)c1cc2ccccc2o1`, the inhibition is inactive: -0.936%.

As for `O=C(OC1CN2CCC1CC2)C1c2ccccc2Oc2ccccc21` (stereo unspecified), the inhibition was inactive: -1.51%.

With `O=C(NCC1(N2CCCCC2)CCCCC1)c1ccc(Cl)s1`, the inhibition is inactive: -0.15%.

As to `N#CC1(Nc2ccccc2)CCN(Cc2ccccc2)CC1`, the inhibition is inactive: 1.35%.

Turning to `COc1ccc(Cl)cc1C(=O)NCC1(N2CCOCC2)CCCCC1`, the inhibition is inactive: -2.63%.

As to `CCOC(=O)N1CCC(Nc2ccc(OC)cc2)CC1`, the inhibition was inactive: -0.923%.

As to `COc1ccc(C(=O)NCC2(N3CCCCC3)CCCCC2)cc1`, the inhibition is inactive: -1.47%.

`COc1ccc(C(=O)NCC2(N3CCCCC3)CCCCC2)c(OC)c1OC`: the inhibition was inactive: -0.373%.

Take `CC(C)(C)OC(=O)N1CCC(N(C(=O)c2ccccc2)c2ccc(F)cc2)CC1`: the inhibition was inactive: -2.8%.

For `O=C(NCC1(N2CCCCC2)CCCCC1)c1ccc(=O)[nH]c1`, the inhibition is inactive: 2.75%.

Regarding `O=C(NCC1(N2CCCCC2)CCCCC1)c1cccs1`, the inhibition is inactive: -0.844%.

For `CSc1ccccc1C(=O)NCC1(N2CCCCC2)CCCCC1`, the inhibition was inactive: -0.146%.

Regarding `COc1cc(C(=O)NCC2(N(C)C)CCCCC2)ccc1OC(F)F`, the inhibition is inactive: -3.23%.

For `CCOC(=O)N1CCC(Nc2cccc(C)c2)CC1`, the inhibition was inactive: -1.12%.

For `Cc1ccc(OCC(C)C)c(CN(CCCl)CCCl)c1`, the inhibition was inactive: 0.553%.

Take `CCOc1ccc(C)cc1CN(CCCl)CCCl`: the inhibition is inactive: 1.81%.

Consider `O=C(NCC1(N2CCCCC2)CCCCC1)c1ccc(F)cc1`, for which the inhibition was inactive: -0.0945%.

Take `COc1ccc(NC2CCN(CCc3ccccc3)CC2)c(OC)c1`: the inhibition was inactive: -0.381%.

Take `CCOC(=O)N1CCC(Nc2ccc(F)cc2)CC1`: the inhibition is inactive: -2%.

For `CCN1CCC(Nc2cccc(F)c2)CC1`, the inhibition was inactive: -2.29%.

As for `O=C(NCC1(N2CCCCC2)CCCCC1)c1ccco1`, the inhibition was inactive: -1.27%.

`CN(C)c1ccc(C(=O)NCC2(N3CCCCC3)CCCCC2)cc1`: the inhibition was inactive: -0.126%.

In the case of `COc1cc(OC)cc(C(=O)NCC2(N3CCCCC3)CCCCC2)c1`, the inhibition was inactive: 2.37%.

In the case of `Cc1ccc(C(=O)NCC2(N3CCCCC3)CCCCC2)o1`, the inhibition is inactive: 1.98%.

Take `Fc1ccccc1NC1CCN(Cc2ccccc2)CC1`: the inhibition was inactive: 1.68%.

As to `COc1cc(OC)cc(C(=O)NCC2(N3CCOCC3)CCCCC2)c1`, the inhibition was inactive: -0.664%.

As to `COc1cccc(C(=O)N(c2cc(C)cc(C)c2)C2CCN(C(=O)OC(C)(C)C)CC2)c1`, the inhibition was inactive: -0.0395%.

Consider `CCC(CO)(C(=O)OC1CN2CCC1CC2)c1ccccc1` (stereo unspecified), for which the inhibition was inactive: 0.225%.

As to `CN1CCC(Nc2ccc(Cl)cc2)CC1`, the inhibition is inactive: -1.46%.

As for `CCCOc1ccc(C)cc1CN(CCCl)CCCl`, the inhibition is inactive: 0.325%.

`CCOc1ncccc1C(=O)NCC1(N2CCOCC2)CCCCC1`: the inhibition is inactive: -0.401%.

For `CN1CCC(Nc2ccc(F)c(Cl)c2)CC1`, the inhibition is inactive: 2.13%.

Take `CC(C)(C)OC(=O)N1CCC(Nc2ccccc2)CC1`: the inhibition was inactive: 0.127%.

Regarding `O=C(O)C1(Nc2ccccc2)CCN(Cc2ccccc2)CC1`, the inhibition is inactive: 3.59%.

Take `CCCOc1ccc(C(=O)NCC2(N(C)C)CCCCC2)cc1`: the inhibition was inactive: 0.92%.

Consider `CCOC(=O)N1CCC(Nc2ccc(C)cc2)CC1`, for which the inhibition is inactive: -1.17%.

As to `N/C(=N\O)c1c(N)no[n+]1[O-]`, the inhibition is inactive: 1.36%.

On to `O=C(OC1CN2CCC1CC2)C1c2ccccc2C=Cc2ccccc21` (stereo unspecified), for which the inhibition is inactive: 1.91%.

With `CCc1cc(C(=O)NCC2(N3CCCCC3)CCCCC2)sc1C`, the inhibition is inactive: 4.31%.

With `COc1cc(C(=O)NCC2(N3CCOCC3)CCCCC2)cc(OC)c1C`, the inhibition was inactive: 0.387%.

Consider `O=C(NCC1(N2CCOCC2)CCCCC1)c1cc(Br)ccc1Cl`, for which the inhibition was inactive: -2.3%.

As for `COc1ccc(C(=O)NCC2(N3CCOCC3)CCCCC2)cc1OC`, the inhibition is inactive: -2.76%.

For the molecule `CN(C)C1(CNC(=O)c2cccc(C#N)c2)CCCCC1`, the inhibition was inactive: 2.28%.

With `c1ccc(CN2CCC(Nc3ccccc3)CC2)cc1`, the inhibition was inactive: 0.693%.

Consider `CCCN1CCC(Nc2cc(OC)cc(OC)c2)CC1`, for which the inhibition is inactive: 7.2%.

As to `N#Cc1ccc(C(=O)NCC2(N3CCCCC3)CCCCC2)cc1`, the inhibition was inactive: 2.11%.

For `CC(C)(C)OC(=O)N1CCC(N(C(=O)c2ccccc2)c2ccc(Cl)cc2)CC1`, the inhibition was inactive: -2.14%.
